Consider 1 compound from patent publication US20130029980A1, “FLAVIN DERIVATIVES” (published 2013).

The subject of this assay is CD3299 riboswitch. Kind of assay: In-line probing assay, binding to CD3299 riboswitch (Example A).

Consider `Cc1cc2nc3c(=O)[nH]c(=O)nc-3n(CCCc3ccccc3)c2cc1C`, for which the “binding / activity against the CD3299 riboswitch (in words)” value was “high affinity”.
